According to PMC12750888, “Design, synthesis, and anti-Toxoplasma gondii evaluation of β-carboline derivatives” (Parasites & Vectors, 2025):

Test system: T. gondii RH strain tachyzoites
Experiment: In vitro anti-proliferation assay (qPCR of 529-bp repeat)
Format: cell-based, Toxoplasma gondii
Details: compared with 9-methyl-harmine (SI = 17.2)
Protocol: The antiproliferative effects of NBZ023 and NBZ035 on T. gondii were determined via qPCR, which was performed by using a QuantStudio 3 Flex real-time PCR system (Life Technologies). Cells were infected with tachyzoites (2 × 10^5 per well) for 6 h, then treated with NBZ023, NBZ035 (0.24‒30 μM) or pyrimethamine (0.4 μM) for 24 h, and washed twice with PBS. Infected or uninfected cells that were cultured with DMEM (1% FBS) were used as the parasite or the host cell control group, respectively. Total genomic DNA from the cell samples was isolated with the DNAiso reagent (Takara), and the levels of the 529-bp repeat sequence of T. gondii were measured via qPCR as before.

Structure (SMILES) | SI greater than that of 9-methyl-harmine
O=C(Nc1ccccc1)c1ccc2[nH]c3c(C(=O)c4cccc(Br)c4)nccc3c2c1 [NBZ023] | 18 fold
O=C(Nc1ccccc1)c1ccc2[nH]c3c4[n+](ccc3c2c1)-c1ccccc1C4=O [NBZ035] | threefold
